Experimental data as given in US12458691.

Legend:
BG505.DS-SOSIP.Δ611 = assay: SPR, Fab over 2G12-captured trimer, 1:1 fit
BG505.DS-SOSIP.Δ88 = assay: SPR, Fab over 2G12-captured trimer, 1:1 fit

VRC34.01 Fab was tested, and the Kd (BG505.DS-SOSIP.Δ611) was 0.446 nM and the Kd (BG505.DS-SOSIP.Δ88) was 2 nM.
